Results of unrelated studies side by side (data: NIAID ChemDB).

Common to all: tests in culture; species: Mycobacterium tuberculosis

Inhibition is in % at the dose shown (toxicity tests: loss of growth or viability). MIC bound comes from a single tested concentration. An empty or dashed field is not shown. a–b is a range or a potency band. ECn is the concentration giving n% inhibition of infection, replication or growth. "inactive" is the filed call at that dose; no cut-off is given. Lines come from different laboratories, so protocols vary.

smiles	method	strain or isolate	tested at	measure	result
C[C@@H]1CN(c2c(F)c(N)c3c(=O)c(C(=O)O)cn(C4CC4)c3c2F)C[C@H](C)N1	-	900216	-	MIC	0.2 µg/mL
Nc1ncccc1/C=C/C(=O)c1cc(Cl)ccc1O	-	H37Rv	-	MIC	>12.5 µg/mL
CCCC(=O)OCC(CSC(=O)CCC)SC(=O)CCC	-	H37Rv	-	MIC	6.25 µg/mL
FC(F)(F)c1cc(NCCCCCCCCCNc2cc(C(F)(F)F)nc3c(C(F)(F)F)cccc23)c2cccc(C(F)(F)F)c2n1	-	H37Rv	6.25 µg/mL	inhibition	89%
COc1ncnc2c1cnn2Cc1cnnn1COCCO	BACTEC	H37Rv	-	EC50	>12.5 µg/mL
O=c1[nH]c2cc(Cl)c(Cl)cc2o1	BACTEC	H37Rv	-	MIC bound	>12.5 µg/mL
OCC(S)CSCC(S)CS	-	H37Rv	-	MIC	25–50 µg/mL
CCCCCCc1cc(C(=O)N/N=C/c2ccc(Cl)cc2)c2ccccc2n1	BACTEC	H37Rv	-	MIC bound	>12.5 µg/mL
FC(F)(F)c1cc(NCCN2CCCC2)c2cccc(C(F)(F)F)c2n1	-	H37Rv	6.25 µg/mL	inhibition	62%
NC(=O)c1c(Cl)nsc1Cl	BACTEC	H37Rv	12.5 µg/mL	inhibition	4%
O=C(CN1C(=O)c2ccccc2C1=O)SCC1CS1	-	H37Rv	-	MIC	>50 µg/mL
CCC(C)Nc1ccc(C(N)=S)cc1	-	-	-	MIC	425 µM
COc1ccc(-c2oc3ccc(C(=O)O)cc3c(=O)c2O)cc1	-	H37Rv	-	MIC	>12.5 µg/mL
CCSc1nnc(-c2ccc([N+](=O)[O-])o2)s1	-	H37Rv	6.25 µg/mL	inhibition	100%
Cn1c(=O)c2nsnc2n(C)c1=O	BACTEC	H37Rv	12.5 µg/mL	inhibition	0%
Cc1ccc(CNC(=O)c2c(-c3ccc(Br)s3)noc2C)o1	resazurin	18b	-	MIC	8 µg/mL
N#Cc1cccc2oc3ccccc3c(=O)c12	-	H37Rv	4 µg/mL	inhibition	inactive
CCCNc1ccc(C(N)=S)cc1	-	-	-	MIC	425 µM
Cc1ccc(N(C)S(=O)(=O)c2ccccc2[N+](=O)[O-])cc1	BACTEC	H37Rv	-	MIC bound	>12.5 µg/mL
O=C1C=CC(=O)C=C1	-	H37Ra	-	MIC	25 µg/mL
O=C(O)c1cccc2oc3ccccc3c(=O)c12	-	H37Rv	16 µg/mL	inhibition	inactive
FC(F)(F)c1cc(NCCCCCNc2cc(C(F)(F)F)nc3c(C(F)(F)F)cccc23)c2cccc(C(F)(F)F)c2n1	-	H37Rv	6.25 µg/mL	inhibition	20%
CCCN1CNC(=S)N(c2ccc(C(=O)OCC)cc2)C1	resazurin	Clinical isolate	-	MIC	0.5 µg/mL
COC1=C(OC)C(=O)C2=C(OCO2)C1=O	BACTEC	H37Rv	12.5 µg/mL	inhibition	10%
CS(=O)(=O)c1nnc(-c2ccc([N+](=O)[O-])o2)s1	-	H37Rv	6.25 µg/mL	inhibition	<90%
COc1ccc(-c2oc3ccc(F)cc3c(=O)c2O)cc1	-	H37Rv	-	MIC	>12.5 µg/mL
NNC(=O)c1ccccc1	-	Erdman	-	MIC	0.03 µg/mL
COc1c2ccoc2nc2c(OC)cccc12	broth dilution / resazurin	H37Rv	-	MIC	140 µM
OCCOCn1nncc1Cn1ncc2c(NCc3ccccc3)ncnc21	BACTEC	H37Rv	-	EC50	>6.25 µg/mL
CSc1nnc(-c2ccc([N+](=O)[O-])o2)s1	-	H37Rv	-	MIC	6.25 µg/mL
CNc1ncnc2c1cnn2Cc1cn(COCCO)nn1	BACTEC	H37Rv	-	EC50	>12.5 µg/mL
O=C(OCC(S)CS)c1ccccc1	-	H37Rv	-	MIC	12.5 µg/mL
O=c1[nH]c2c([N+](=O)[O-])cccc2c(O)c1N=Nc1ccccc1-c1ccccc1	resazurin	H37Rv	-	MIC	>6.25 µg/mL
O=[N+]([O-])c1ccc(CS(=O)(=O)c2nnc(-c3ccc([N+](=O)[O-])o3)s2)cc1	-	H37Rv	6.25 µg/mL	inhibition	79%
O=c1[nH]c2cc([N+](=O)[O-])ccc2c(O)c1N=Nc1ccccc1-c1ccccc1	resazurin	H37Rv	6.25 µg/mL	inhibition	100%
O=[N+]([O-])c1ccc(-c2nnc(S(=O)(=O)Cc3ccc(Cl)cc3)s2)o1	-	H37Rv	6.25 µg/mL	inhibition	13%
CCOC(=O)CC(=O)NCC(=O)N1CCN(c2ccc(N3C[C@H](Cn4cc(C)nn4)OC3=O)cc2F)CC1	visual reading	H37Rv	-	MIC	>47 µM
CC(C)C(=O)N1c2ccccc2OC(=O)C1CC(=O)Nc1ccccc1	resazurin	Clinical isolate	-	MIC	8 µg/mL
O=c1[nH]c2cc([N+](=O)[O-])ccc2c(O)c1N=Nc1ccc(Cl)c(F)c1	resazurin	H37Rv	6.25 µg/mL	inhibition	70%
CC1SC1CS	-	H37Rv	-	MIC	100 µg/mL
CS(=O)c1nnc(-c2ccc([N+](=O)[O-])o2)s1	-	H37Rv	-	MIC	3.13 µg/mL
CC(C)=CCC1=C(O)c2ccccc2C(=O)C1=O	-	H37Ra	-	MBC	400 µg/mL
O=c1[nH]c2cnn(-c3ccccc3)c2c(=O)n1O	resazurin	H37Rv	6.25 µg/mL	inhibition	13%
O=C(O)c1ccc2oc3ccccc3c(=O)c2c1	-	H37Rv	32 µg/mL	inhibition	inactive
COc1ccc(-c2cc(=O)c3cc(F)ccc3o2)cc1	-	H37Rv	-	MIC	>12.5 µg/mL
FC(F)(F)c1cc(NCCCCCCCNc2cc(C(F)(F)F)nc3c(C(F)(F)F)cccc23)c2cccc(C(F)(F)F)c2n1	-	H37Rv	6.25 µg/mL	inhibition	78%
CC(=O)c1ccc(N=Nc2c(O)c3ccc(Cl)cc3[nH]c2=O)cc1	resazurin	H37Rv	6.25 µg/mL	inhibition	6%
CSc1ncnc2c1cnn2Cc1cn(COCCO)nn1	BACTEC	H37Rv	-	EC50	>12.5 µg/mL
CCOC(=O)c1cn(Cc2ccc(F)cc2)cc1-c1ccccc1	-	CIP103471	-	MIC	125 µg/mL
CN1CCN(c2nc(Oc3ccc(C#N)cc3)nc(-c3ccc(N4C(=O)CSC4c4ccccc4)cc3)n2)CC1	agar	H37Rv	-	MIC	200 µg/mL
COc1cc(=O)n(C)c2ccccc12	broth dilution / resazurin	H37Rv	-	MIC	>2000 µg/mL
O=c1c2cc([N+](=O)[O-])ccc2nc2n1CCCCC2	BACTEC	H37Rv	-	MIC bound	>12.5 µg/mL
CCC(C)[C@H](C(=O)N[C@@H](CC(C)C)C(=O)N1CC[C@@H]2Oc3ccc(O)c(c3)/C=C\NC(=O)[C@@H]3CCCN3C(=O)[C@H]21)N(C)C	-	H37Ra	-	MIC	>200 µg/mL
Oc1ccccc1-c1nnc2n1N=C(c1ccc(-c3ccccc3)cc1)CS2	BACTEC	H37Rv	-	MIC bound	>12.5 µg/mL
FC(F)(F)c1cc(NCCN2CCOCC2)c2cccc(C(F)(F)F)c2n1	-	H37Rv	-	MIC	>6.25 µg/mL
O=C(/C=C/c1cc2ccccc2c2ccccc12)c1cccc(O)c1	-	H37Rv	-	MIC	31.5 µg/mL
CC(=O)Nc1ccc(S(=O)(=O)NNc2nc(N3CCOCC3)nc(N3CCOCC3)n2)cc1	BACTEC	H37Rv	12.5 µg/mL	inhibition	-2%
Cc1ccc2c(=O)c3ccccc3oc2c1C	-	H37Rv	4 µg/mL	inhibition	inactive
NS(=O)(=O)c1ccc(N2C(=S)N(c3ccccc3)C(=Nc3ccccc3)C2=Nc2ccccc2)cc1	BACTEC	H37Rv	-	MIC bound	≤12.5 µg/mL
CCOc1ccc(NC(C)=O)cc1	-	H37Ra	-	MBC	3200 µg/mL
CCOC(=O)c1cn(S(=O)(=O)c2ccc(C)cc2)cc1-c1ccncc1	-	CIP103471	-	MIC	4 µg/mL
CC(C)Nc1ccc(C(N)=S)cc1	-	-	-	MIC	500 µM
CCc1cnccc1-c1c[nH]cc1C(=O)NN	-	CIP103471	-	MIC	>250 µg/mL
O=S(=O)(NCCC1=CCCCC1)c1ccc(Cl)s1	resazurin	18b	-	MIC	16 µg/mL
COc1ccc(C2Nc3cc(Cl)ccc3NC3=C2C(=O)CC(C)(C)C3)cc1	resazurin	H37Rv	-	MIC bound	>6.25 µg/mL
COC(=O)c1cccc2c(=O)c3ccccc3oc12	-	H37Rv	32 µg/mL	inhibition	inactive
CC1(C)N=C(c2ccccc2)C(=O)N1CC(=O)Nc1ccc2c(c1)OCO2	resazurin	18b	-	MIC	>16 µg/mL
O=c1[nH]c2ccccc2c(O)c1N=Nc1ccccc1	resazurin	H37Rv	-	MIC	<6.25 µg/mL
O=C(O)c1cccc2ccccc12	-	H37Ra	-	MBC	400 µg/mL
CC1CCCC(C)N1C(=O)c1noc2c1CC(C(C)(C)C)CC2	resazurin	Clinical isolate	-	MIC	16 µg/mL
Cc1ccc2oc3ccccc3c(=O)c2c1	-	H37Rv	4 µg/mL	inhibition	inactive
Cc1cc(Cl)cc2c1NC(=O)C2(O)C/C(=N/NC(=O)CC#N)c1cccc([N+](=O)[O-])c1	resazurin	H37Rv	6.25 µg/mL	inhibition	15%
Cc1cccc2c(O)c(N=Nc3cccc(Cl)c3)c(=O)[nH]c12	resazurin	H37Rv	-	MIC	>6.25 µg/mL
Cc1ccc(C(=O)CN2C(=O)COc3ccccc3C2=O)cc1	resazurin	Clinical isolate	-	MIC	8 µg/mL
N#CC1=C(C#N)C(=O)C(Cl)=C(Cl)C1=O	-	H37Ra	-	MIC	400 µg/mL
COc1ccc(C(=O)/C=C/c2ccncc2)cc1	-	H37Rv	-	MIC	>12.5 µg/mL
O=C(NCC(=O)N1CCN(c2ccc(N3C[C@H](Cn4ccnn4)OC3=O)cc2F)CC1)C1=CC=C([N+](=O)[O-])C1	broth dilution / visual reading	H37Rv	0.5 µM	inhibition	57%
O=[N+]([O-])c1ccc(CSc2nnc(-c3ccc([N+](=O)[O-])o3)s2)cc1	-	H37Rv	-	MIC	3.13 µg/mL
CCC(=O)OCC(S)CS	-	H37Rv	-	MIC	12.5 µg/mL
CC(=O)C(N=Nc1ccc(S(=O)(=O)Nc2onc(C)c2C)cc1)C(=O)Nc1cc(C)cc(C)c1	BACTEC	H37Rv	12.5 µg/mL	inhibition	0%
OCCOCn1cc(Cn2ncc3c(SCc4ccccc4)ncnc32)nn1	BACTEC	H37Rv	6.25 µg/mL	inhibition	52%
CC(C)C1=C(O)C2=C(C(=O)C1=O)C1(C)CCCC(C)(C)C1CC2	BACTEC	H37Rv	-	MIC bound	>12.5 µg/mL
CCNc1ccc(C(N)=S)cc1	-	-	-	MIC	425 µM
CC1=CC(=O)c2c(O)cccc2C1=O	-	H37Ra	-	MIC	400 µg/mL
CC(=O)OC1(C#N)CC2OC1C1N=NN(C(=O)OC(C)(C)C)C21	BACTEC	H37Rv	12.5 µg/mL	inhibition	12%
COc1ccc(/C=C/C(=O)c2c(O)cccc2OC)cc1	-	H37Rv	-	MIC	>12.5 µg/mL
O=[N+]([O-])c1ccc(-c2nnc(SCc3ccc(F)cc3Cl)s2)o1	-	H37Rv	6.25 µg/mL	inhibition	0%
OCc1cn(Cc2ccccc2Cl)cc1-c1ccccc1	-	CIP103471	-	MIC	8 µg/mL
COc1cc2c(c3oc(=O)ccc13)C=CC(C)(C)O2	broth dilution / resazurin	H37Rv	-	MIC	1940 µM
O=C1CC2(C(=O)O)CC3CC2C(O1)C3I	BACTEC	H37Rv	12.5 µg/mL	inhibition	22%
CCC(C)[C@H](C(=O)N[C@H](C(=O)N1CC[C@@H]2Oc3ccc(OC)c(c3)/C=C\NC(=O)[C@@H]3CCCN3C(=O)[C@H]21)C(C)C)N(C)C	-	H37Ra	-	MIC	200 µg/mL
COc1cc(C(=O)N=Nc2c(O)[nH]c3ccc(Br)cc23)cc(OC)c1OC	BACTEC	H37Rv	-	MIC	≥12.5 µg/mL
O=C(O)c1cc([N+](=O)[O-])c2oc3c(C(=O)O)cc([N+](=O)[O-])cc3c(=O)c2c1	-	H37Rv	32 µg/mL	inhibition	inactive
CC(C)[C@](O)(C(=O)OCC1=CC[N+]2([O-])CC[C@@H](O)[C@@H]12)[C@H](C)O	BACTEC	H37Rv	-	MIC bound	>12.8 µg/mL
COc1ccc2c(=O)cc(-c3ccccc3)oc2c1	-	H37Rv	-	MIC	>12.5 µg/mL
O=C(CCCC(=O)N/N=C/c1ccc(Cl)cc1Cl)N/N=C/c1ccc(Cl)cc1Cl	BACTEC	H37Rv	12.5 µg/mL	inhibition	-1%
C/C=C(/C)C(=O)OC1CC(C)(C)CC2C3=CCC4C5(C)CC[C@H](OC(C)=O)C(C)(C)C5CC[C@@]4(C)[C@]3(C)CC[C@@]12C(=O)O	-	H37Rv (rifampicin-resistant)	-	MIC	50 µg/mL

For reference, 9 entries again:

smiles | method | strain or isolate | tested at | measure | result
CC(C)[C@](O)(C(=O)OCC1=CC[N+]2([O-])CC[C@@H](O)[C@@H]12)[C@H](C)O | BACTEC | H37Rv | - | MIC bound | >12.8 µg/mL
CCc1cnccc1-c1c[nH]cc1C(=O)NN | - | CIP103471 | - | MIC | >250 µg/mL
O=C(/C=C/c1cc2ccccc2c2ccccc12)c1cccc(O)c1 | - | H37Rv | - | MIC | 31.5 µg/mL
COc1ccc(-c2oc3ccc(F)cc3c(=O)c2O)cc1 | - | H37Rv | - | MIC | >12.5 µg/mL
O=C(O)c1cccc2ccccc12 | - | H37Ra | - | MBC | 400 µg/mL
O=c1[nH]c2cc([N+](=O)[O-])ccc2c(O)c1N=Nc1ccccc1-c1ccccc1 | resazurin | H37Rv | 6.25 µg/mL | inhibition | 100%
NS(=O)(=O)c1ccc(N2C(=S)N(c3ccccc3)C(=Nc3ccccc3)C2=Nc2ccccc2)cc1 | BACTEC | H37Rv | - | MIC bound | ≤12.5 µg/mL
CC(C)C(=O)N1c2ccccc2OC(=O)C1CC(=O)Nc1ccccc1 | resazurin | Clinical isolate | - | MIC | 8 µg/mL
Cc1ccc2c(=O)c3ccccc3oc2c1C | - | H37Rv | 4 µg/mL | inhibition | inactive